Laboratory results as given in patent US6110901A (priority 1992, dated 2000).

Molecular target: Recombinant poliovirus RNA polymerase (Poliovirus type 1, UniProt P03300)
Test: Poliovirus RNA-dependent RNA polymerase transcription assay with poly(A)-tailed RNA templates
Settings: molar ratio 1:1 with the low molecular weight template

`Nc1ncnc2c1ncn2[C@@H]1O[C@H](COP(=O)(O)OP(=O)(O)OP(=O)(O)O)C[C@H]1O` was tested. Which “Inhibition of transcription with poliovirus RNA polymerase” value did it give?
The value was “less active inhibitor”.
